Reference: patent US20220235118A1

Target: SARS-CoV-2 Spike receptor binding domain (RBD), reference (USA/WA_CDC-WA1/2020) (SARS-CoV-2) (UniProt P0DTC2)
Experiment: cell-based or functional assay

In the case of Anti-RSV (antibody), the Phagocytosis score at 0.6 nM is reported as 1.38.
